A mixed list of measured activities; the numbers were collected in NIAID ChemDB.

All rows: enzyme or target tests; agent: HIV-1; protein: Integrase; endpoint: IC50

Blank or dashed fields: not listed here. Lines come from different laboratories, so protocols vary. Two numbers with a dash give a range or band. ICn: concentration for n% inhibition.

{"structure": "Cc1cn2c(=O)c(O)c(-c3ncc(Cc4ccc(F)cc4)s3)nc2s1", "mutations": "E92Q/N155H", "read by": "strand transfer", "result": "0.001–1 µM"}
{"structure": "COCCNC(=O)c1cn2ccn(Cc3ccc(F)cc3)c(=O)c2c(O)c1=O", "read by": "ELISA", "result": "0.01–0.1 µM"}
{"structure": "CN(C)CCN1C(=O)c2ccc3[nH]c4ccc(O)cc4c3c2C1=O", "read by": "ELISA / strand transfer / luminescence", "result": "27.28 µM"}
{"structure": "O=c1nc(NCc2ccc(-c3ccccn3)s2)c2cccnc2n1O", "read by": "strand transfer", "result": "1.778 µM"}
{"structure": "COc1ccc(-c2nc(SCc3ccc([N+](=O)[O-])cc3)[nH]c(=O)c2C#N)cc1", "read by": "strand transfer", "result": "75 µM"}
{"structure": "CN(C)CCN1C(=O)c2cc(-c3ccccc3)c3[nH]c4ccc(O)cc4c3c2C1=O", "read by": "ELISA / strand transfer / luminescence", "result": "50.64 µM"}
{"structure": "CC(C)c1cn2c(=O)c(O)c(C(=O)NCc3ccc(Cl)c(Cl)c3)nc2s1", "read by": "strand transfer", "result": "0.001–1 µM"}
{"structure": "N#Cc1c(-c2cccc(Cl)c2)nc(SCc2ccccc2)[nH]c1=O", "read by": "strand transfer", "result": "17 µM"}
{"structure": "CCOC(=O)C[C@H]1[C@@H](O[Si](C)(C)C(C)(C)C)[C@H](n2cnc3c(NC(=O)Nc4ccccc4)ncnc32)O[C@@H]1CNC(=O)NC", "strain": "NL4-3", "read by": "3′ processing", "result": ">10 µM"}
{"structure": "Cc1ccc2cc(-c3ccccc3)c3ccc(C)nc3c2n1", "read by": "3′ processing", "result": ">100 µM"}
{"structure": "COC(=O)C(=O)c1c(O)[nH]c2ccccc12", "read by": "strand transfer", "result": "400 µM"}
{"structure": "N#Cc1c(-c2ccccc2)nc(SCCc2ccccc2)[nH]c1=O", "read by": "strand transfer", "result": "100 µM"}
{"structure": "O=C(Nc1cn2ccn(Cc3cccc(Cl)c3)c(=O)c2c(O)c1=O)c1ccccc1", "read by": "ELISA", "result": "<0.01 µM"}
{"structure": "COc1ccc2c(c1)c1c3c(ccc1n2C)C(=O)N(CCN(C)C)C3=O", "read by": "ELISA / strand transfer / luminescence", "result": "4.42 µM"}
{"structure": "O=C(O)c1cn2c(c1O)C(=O)N(Cc1ccccc1)CC2", "read by": "strand transfer", "result": "<0.7 µM"}
{"structure": "O=C(Nc1cn2ccn(Cc3ccc(F)cc3)c(=O)c2c(O)c1=O)c1cccnc1", "read by": "ELISA", "result": "<0.01 µM"}
{"structure": "CN(C)CCN1C(=O)c2ccc3[nH]c4cc5c(cc4c3c2C1=O)OCO5", "read by": "ELISA / strand transfer / luminescence", "result": "10.68 µM"}
{"structure": "COc1ccc(-c2nc(SCCc3ccccc3)[nH]c(=O)c2C#N)cc1", "read by": "strand transfer", "result": "100 µM"}
{"structure": "O=C(/C=C(\\O)C(=O)O)/C=C(\\O)c1ccccc1", "read by": "strand transfer", "result": "600 µM"}
{"structure": "CNC(=O)c1cn2c(c1O)C(=O)N(Cc1ccc(Cl)cc1)CC2", "read by": "strand transfer", "result": "<1.5 µM"}
{"structure": "Cc1cn2c(=O)c(O)c(-c3ncc(Cc4ccc(Cl)c(Cl)c4)s3)nc2s1", "read by": "strand transfer", "result": "0.001–1 µM"}
{"structure": "Cc1c2c(c3c([nH]c4ccccc43)c1C)C(=O)N(CCN(C)C)C2=O", "read by": "ELISA / strand transfer / luminescence", "result": "16.94 µM"}
{"structure": "Cc1ccc(-c2nc(SCc3ccccc3)[nH]c(=O)c2C#N)cc1", "read by": "strand transfer", "result": "100 µM"}
{"structure": "CNC(=O)NC[C@H]1O[C@@H](n2cnc3c(NC(=O)Nc4ccccc4)ncnc32)[C@H](O)[C@@H]1CC(=O)O", "strain": "NL4-3", "read by": "3′ processing", "result": ">10 µM"}
{"structure": "O=C(Nc1cn2ccn(Cc3cccc(Cl)c3)c(=O)c2c(O)c1=O)c1cccs1", "read by": "ELISA", "result": "<0.01 µM"}
{"structure": "Cc1ccc(-c2nc(SCCc3ccccc3)[nH]c(=O)c2C#N)cc1", "read by": "strand transfer", "result": "35 µM"}
{"structure": "CC(C)(C)C(=O)c1cn2ccn(Cc3ccc(F)c(Cl)c3)c(=O)c2c(O)c1=O", "read by": "ELISA", "result": "<0.01 µM"}
{"structure": "Cc1cc2c(c3c4ccccc4n(C)c13)C(=O)N(CCN(C)C)C2=O", "read by": "ELISA / strand transfer / luminescence", "result": "11.88 µM"}
{"structure": "Cn1ncnc1-c1cn2ccn(Cc3cccc(Cl)c3)c(=O)c2c(O)c1=O", "read by": "ELISA", "result": "<0.01 µM"}
{"structure": "N#Cc1c(-c2ccc(Cl)cc2)nc(SCc2ccc([N+](=O)[O-])cc2)[nH]c1=O", "read by": "strand transfer", "result": "100 µM"}
{"structure": "CC(C)C(=O)c1cn2ccn(Cc3cccc(Cl)c3)c(=O)c2c(O)c1=O", "read by": "ELISA", "result": "<0.01 µM"}
{"structure": "O=C(O)C(=O)c1c(O)[nH]c2ccccc12", "read by": "strand transfer", "result": "600 µM"}
{"structure": "Cc1nc2c(ccc3c(C)c(C)c(C)nc32)c(C)c1C", "read by": "strand transfer", "result": ">100 µM"}
{"structure": "Cc1cn2c(=O)c(O)c(-c3ncc(Cc4ccc(F)c(Cl)c4)s3)nc2s1", "mutations": "G140S/Q148H", "read by": "strand transfer", "result": "1–10 µM"}
{"structure": "CNC(=O)c1cn2c(c1O)C(=O)N(Cc1ccc(Cl)c(Cl)c1)CC2", "read by": "strand transfer", "result": "<1.5 µM"}
{"structure": "O=C1c2c(O)c(=O)c(-c3nccs3)cn2CCN1Cc1ccc(OCc2ccccc2)c(Cl)c1", "read by": "ELISA", "result": "0.01–0.1 µM"}
{"structure": "O=C(O)c1cn2c(c1O)C(=O)N(Cc1cccc(Cl)c1)CC2", "read by": "strand transfer", "result": "<0.7 µM"}
{"structure": "N#Cc1c(-c2cccc([N+](=O)[O-])c2)nc(SCc2ccccc2)[nH]c1=O", "read by": "strand transfer", "result": "87 µM"}
{"structure": "COc1ccc2[nH]c3c(C)cc4c(c3c2c1)C(=O)N(CCN(C)C)C4=O", "read by": "ELISA / strand transfer / luminescence", "result": "6.61 µM"}
{"structure": "[N-]=[N+]=NC[C@H]1O[C@@H](n2cnc3c(NC(=O)Nc4ccccc4)ncnc32)[C@@H]2OC(=O)C[C@@H]21", "strain": "NL4-3", "read by": "strand transfer", "result": ">10 µM"}
{"structure": "COc1ccc2[nH]c3c(C)cc4c(c3c2c1)C(=O)N(Cc1ccccc1)C4=O", "read by": "ELISA / strand transfer / luminescence", "result": ">100 µM"}
{"structure": "Cn1cc(-c2cc(C(=O)O)no2)c2ccccc21", "read by": "strand transfer", "result": "475 µM"}

A second listing of 6 rows from above:

structure | strain | mutations | read by | result
COc1ccc(-c2nc(SCCc3ccccc3)[nH]c(=O)c2C#N)cc1 | - | - | strand transfer | 100 µM
O=c1nc(NCc2ccc(-c3ccccn3)s2)c2cccnc2n1O | - | - | strand transfer | 1.778 µM
O=C(Nc1cn2ccn(Cc3cccc(Cl)c3)c(=O)c2c(O)c1=O)c1cccs1 | - | - | ELISA | <0.01 µM
Cn1ncnc1-c1cn2ccn(Cc3cccc(Cl)c3)c(=O)c2c(O)c1=O | - | - | ELISA | <0.01 µM
CN(C)CCN1C(=O)c2cc(-c3ccccc3)c3[nH]c4ccc(O)cc4c3c2C1=O | - | - | ELISA / strand transfer / luminescence | 50.64 µM
Cc1ccc(-c2nc(SCc3ccccc3)[nH]c(=O)c2C#N)cc1 | - | - | strand transfer | 100 µM